Data reported in PMC8828441.

Molecular target: dimeric human ACE2 fused to the Fc domain of human immunoglobulin (Ig)G (human) (UniProt Q9BYF1)
Test: SPR

Q: How did the Kd turn out when “ADDomer decorated with SARS-CoV-2 RBD (from UniProt P0DTC2 320-554) (complex)” was run?
A: The Kd was 0.309 nM.
